Measurements taken from US20040126810A1, “Peptide substrate identified by type bont/b botulinus toxin and use thereof for assaying and/or detecting said toxin or corresponding inhibitors” (published 2004).

Molecular target: peptide substrate 2s (fragment 60-94 of synaptobrevin with PyA-Ser-Gln-pNF at the cleavage site) (…)

Q: “light chain of botulinum toxin type B (BoNT/B) (from UniProt P10844) (enzyme)” was tested. Which kinetic constants of cleavage of the substrate (fluorimetric assay) did it give?
A: 47 µM
